PubChem BioAssay AID504761 | Drosophila RNAi Screening Center | 2011
Purpose: 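Fly genes whose silencing reduces dengue virus type 2 infection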 (primary screen). Cell system: D.Mel-2 cells from Drosophila. Reagents: long dsRNA against Drosophila genes. Conditions: infection with dengue virus type 2; dose and infection time not stated. Read-out: 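Cells stained for dengue envelope protein and imaged; percent of infected cells per well on duplicate plates, ranked by infection, with stained nuclei counted for cell number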. Reading the numbers: infection score: higher = more virus-infected cells; cell count: higher = more cells in the well. Hit rule: 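Low infection ranks in the two replicates (chance level up to 0.065) followed by a retest with a 1.5-fold or larger significant decrease, p below 0.05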. Meaning of the calls: active = confirmed: knock-down lowers infection; inactive = not picked or not confirmed.
The screen tested about 22,000 reagents; shown is an unselected part of those with a known target gene and a result. Of all reagents, 116 (0.52%) were called active. 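Calls depend on retest data that are not deposited; infection was ranked per plate without normalising between plates; the unit of the infection score is not given.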 The raw values are shown without normalisation. Not stated in the record: the amount of reagent, the time to read-out.

gene | dsRNA | infection score, replicate 1 | infection score, replicate 2 | cell count, replicate 1 | cell count, replicate 2 | Call
CG14882 | DRSC15006 | 12.8 | 6.73 | 6195 | 6627 | inactive
CG14882 | DRSC28318 | 2.75 | 15.8 | 908 | 5681 | inactive
NO66 | DRSC18252 | 3.97 | 9.35 | 6706 | 6602 | inactive
sd | DRSC20370 | 11.5 | 22.6 | 6107 | 6075 | inactive
CG13551 | DRSC21847 | 2.13 | 0.88 | 6852 | 6453 | inactive
nesd | DRSC02099 | 3.78 | 3.42 | 6560 | 6322 | inactive
nesd | DRSC27779 | 4.77 | 6.38 | 6539 | 6563 | inactive
RhoGEF2 | DRSC07531 | 8.91 | 7.68 | 5969 | 6358 | inactive
RhoGEF2 | DRSC29373 | 5.77 | 10.3 | 1421 | 5578 | inactive
GV1 | DRSC08228 | 5.56 | 1.45 | 5940 | 6277 | inactive
GV1 | DRSC25953 | 4.33 | 0.66 | 5815 | 6324 | inactive
Prm | DRSC08941 | 0.6 | 0.54 | 6462 | 6438 | inactive
Prm | DRSC08942 | 0.53 | 0.66 | 5987 | 6406 | inactive
Prm | DRSC11255 | 16.4 | 7.21 | 5075 | 5149 | inactive
Prm | DRSC26929 | 19.6 | 14.6 | 6028 | 5778 | inactive

Continued (3 carried over from the part before).
gene | dsRNA | infection score, replicate 1 | infection score, replicate 2 | cell count, replicate 1 | cell count, replicate 2 | Call
Prm | DRSC08942 | 0.53 | 0.66 | 5987 | 6406 | inactive
Prm | DRSC11255 | 16.4 | 7.21 | 5075 | 5149 | inactive
Prm | DRSC26929 | 19.6 | 14.6 | 6028 | 5778 | inactive
RnrS | DRSC07533 | 0.78 | 51.4 | 514 | 969 | inactive
RnrS | DRSC23541 | 7.44 | 9.1 | 1197 | 1319 | inactive
CG12947 | DRSC14575 | 3.14 | 1.59 | 6312 | 6601 | inactive
SP1173 | DRSC11277 | 6.35 | 4.17 | 6563 | 6733 | inactive
CG12929 | DRSC06242 | 2.45 | 8.72 | 6437 | 6549 | inactive
PGAP5 | DRSC03089 | 2.09 | 21.7 | 6211 | 5056 | inactive
PGAP5 | DRSC27504 | 5.14 | 11.4 | 6712 | 6541 | inactive
Cp36 | DRSC18452 | 1.59 | 1.23 | 6608 | 6687 | inactive
Cp36 | DRSC27244 | 7.39 | 4.18 | 6917 | 6384 | inactive
